From the supplement of paper PMC4206461
This is a selection; strong and weak results do not stand in their true shares.

test system: Pseudomonas aeruginosa PA14 dppA1-A5 penta mutant + pBBR5.DppA1 (PA14_58350); assay: respiration area under curve with compound as sole nitrogen source, 24 h (OmniLog AUC (arbitrary units)); higher = more respiration / better utilisation as nitrogen source, active = 2000 or more; conditions: plate: PM8
Method: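 Biolog Phenotype MicroArray plates PM6-PM8: each di/tripeptide is the sole nitrogen source. Tetrazolium reduction was read in the OmniLog for 24 h at 37°C and summarised as area under the respiration curve (arbitrary units). Values below 2000 count as no respiration. Strain is the SBP penta mutant complemented with DppA1 on a plasmid under its native promoter. Lys/His/Cys peptides are excluded.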

Compound	respiration area under curve
CC(C)C[C@H](N)C(=O)N[C@@H](Cc1ccc(O)cc1)C(=O)O	active: 7460
